Experimental data as given in patent publication US7718767B2, “3-ether and 3-thioether substituted cyclosporin derivatives for the treatment and prevention of hepatitis C infection” (Scynexis, Inc., priority 2006, dated 2010).

Test system: HIV-1IIIB
Assay: HIV MTS cytoprotection assay in CEM-SS cells
Format: cell-based, human immunodeficiency virus-1

Structure (SMILES) | Selectivity Index IC50/EC50
C/C=C/C[C@@H](C)[C@@H](O)[C@H]1C(=O)N[C@@H](CC)C(=O)N(C)C(SCC)C(=O)N(C)[C@@H](CC(C)C)C(=O)N[C@@H](C(C)C)C(=O)N(C)[C@@H](CC(C)C)C(=O)N[C@@H](C)C(=O)N[C@H](C)C(=O)N(C)[C@@H](CC(C)C)C(=O)N(C)[C@@H](CC(C)C)C(=O)N(C)[C@@H](C(C)C)C(=O)N1C (some centres unmarked) [P, 3-ethylthiocyclosporin] | 38
C=CCS[C@@H]1C(=O)N(C)[C@@H](CC(C)C)C(=O)N[C@@H](C(C)C)C(=O)N(C)[C@@H](CC(C)C)C(=O)N[C@@H](C)C(=O)N[C@H](C)C(=O)N(C)[C@@H](CC(C)C)C(=O)N(C)[C@@H](CC(C)C)C(=O)N(C)[C@@H](C(C)C)C(=O)N(C)[C@@H]([C@H](O)[C@H](C)C/C=C/C)C(=O)N[C@@H](CC)C(=O)N1C [Q, 3-propenylthiocyclosporin] | 82
